Drawing on article PMC10869273, this text covers Kd for 14 substances.

What all share (assay): BLI
(In BLI a coated tip is dipped into the sample, and binding shifts an interference pattern.)

The target of experiment [1] is HA H4 Hubei (A/swine/Hubei/06/2009(H4N1)) (influenza A virus A/swine/Hubei/06/2009(H4N1)).
Experiment [2] concerns the target SARS-CoV-2 Omicron BA.1 receptor-binding domain (RBD).
For experiment [3], the target named is HA H7 HK17 (A/Hong Kong/125/2017(H7N9)) (influenza A virus A/Hong Kong/125/2017(H7N9)).

As to MEDI8852 UCA VH V65P-P75R IgG, in experiment [1], the Kd amounted to 0.57 µM.
Take MEDI8852 UCA VL G95P Fab: the Kd in experiment [1] came to 17 µM.
Regarding MEDI8852 UCA VH K58S-V65P-P75R IgG, the Kd in experiment [1] came to 0.072 µM.
For MEDI8852 UCA VH K58S Fab, the Kd in experiment [1] stood at 2.5 µM.
For MEDI8852 UCA VH K58S / VL G95P IgG, in experiment [1], the Kd was determined as 0.036 µM.
Regarding MEDI8852 VH W59S Fab, in experiment [1], the Kd was determined as 0.00091 µM.
The substance “REGN10987 Fab (wild-type) VH:R16G; VL:N91C” registered a Kd in experiment [2] (monovalent Fab) of 4.5 µM.
Consider C143 IgG (wild-type) VL:T33N; VL:G53V, for which, in experiment [2] (apparent Kd of the bivalent IgG), the Kd came out at 0.16 µM.
Consider MEDI8852 UCA VH K58S-V65P / VL G95P IgG, for which the results for the Kd in experiment [3] and in experiment [1] were 0.0056 µM and 0.03 µM, respectively.
Substance MEDI8852 VH V35Y Fab registered a Kd in experiment [1] of 0.00083 µM.
As to MEDI8852 UCA VH K58S-P75R IgG, in experiment [1], the Kd was 0.047 µM.
Still for that read-out and setting: next, MEDI8852 UCA VH V65P / VL G95P IgG: 0.1 µM; MEDI8852 UCA VH K58S / VL G95P Fab: 3.1 µM.
In experiment [1], MEDI8852 UCA VH V65P-P75R / VL G95P IgG came in with a Kd of 0.11 µM.
